# Positions count from the first letter of the chain named.
# B1: mβ1′β2_(ESWR) SSB (other)
# chain: MASRGVNKVILVGNLGQDPELRFTPSGAAVANFTVASTESWRDRQTGEMKEQTEWHRVVLFGKLAEVASEYLRKGSQVYIEGQLRTRKWTDQSGQDRYTTEVVVNVGGTMQMLGGRQGGGAPAGGNIGGGQPQGGWGQPQQPQGGNQFSGGAQSRPQQSAPAAPSNEPPMDFDDDIPF
# B2: mβ1′β2 SSB (other)
# chain: B1 chain with E39P, S40R, W41I, R42Y
# Legend:
# native gel or EMSA = molecular target: the molecule itself; assay: native gel or EMSA
# SEC = molecular target: the molecule itself; assay: SEC
Protein,stoichiometry N (native gel or EMSA),stoichiometry N (SEC)
B1,4,–
B2,–,4

# From PMC3236198, “Chimeras of Escherichia coli and Mycobacterium tuberculosis Single-Stranded DNA Binding Proteins: Characterization and Function in Escherichia coli” (PLoS ONE, 2011)
